Results published in patent US11613538B2, “Method of inhibiting or reducing a viral infection” (PTC Therapeutics, Inc., priority 2009, dated 2023).

Tested on: HCV replicons
Assay: Selection of resistant HCV replicons
Conditions: exposure of replicon cells for up to four months; in words

In the case of `COc1ccc([C@H]2c3[nH]c4ccc(Cl)cc4c3CCN2C(=O)Oc2ccc(Cl)cc2)cc1` (racemic) [Compound #10], the “Attempts to generate resistant HCV replicons” value is reported as “unsuccessful”.
